PMC10404741

Biological target: ConC glycan-base trimer (N28-JCBv3-660-665 on the stabilised consensus clade C trimer with DS) (HIV-1 (consensus clade C))
Test: SPR
Conditions: domain or fragment

“soluble construct of CD4 containing the first two domains (sCD4)” was tested. Which Kd did it give?
The Kd was 72 nM.
